Publication PMC8757871, “Bridging the Antimicrobial Activity of Two Lactoferricin Derivatives in E. coli and Lipid-Only Membranes” (Frontiers in Medical Technology, 2021)

Experiment: SAXS d-spacing of peptide-induced aggregates
Settings: POPE/POPG; 4 h after lipid-peptide mixing, 37°C; [P]/[L] = 1:25, [P] ~ 1.1 mM

Substance | final d-value (d-spacing, end-state)
H-FWRIRIRR-NH2 [LF11-215, H-FWRIRIRR-NH2] | 5.53 nm
H-PFFWRIRIRR-NH2 [LF11-324, H-PFFWRIRIRR-NH2] | 5.12 nm
